Compound potency records, mixed from different reports. Data source: NIAID ChemDB in PubChem.

Shared fields: tests on isolated targets; agent: HIV-1; target: Integrase; read-out: IC50

Two numbers with a dash give a range or band. Lines come from different laboratories, so protocols vary. Blank or dashed fields: not listed here. ICn: concentration for n% inhibition.

| smiles | strain or isolate | read by | value |
|---|---|---|---|
| C=C(C=O)[C@@H]1C[C@@]2(C)C(=CC1=O)[C@H](OC(=O)/C(C)=C\C(C)CCCC)CC[C@@H]2C(=O)O | - | strand transfer | 10 µM |
| COc1cccc2c1c(/C(O)=C/C(=O)C(=O)O)cn2Cc1ccccc1F.COc1cccc2c1c(/C(O)=C/C(=O)C(=O)O)cn2Cc1ccccc1F.[Mg+2].[Mg+2] | IIIB | strand transfer / AlphaScreen | 0.02 µM |
| Nc1ncnc2c1ncn2[C@@H]1CO[C@H](COP(=O)(O)O[C@H]2C[C@H](n3cnc4c(N)ncnc43)O[C@@H]2COP(=O)(O)O)[C@H]1O | - | 3′ processing | >1000 µM |
| CC(C)n1c(=O)c(O)c2n(c1=O)CCN(Cc1ccc3ccccc3n1)C2=O | - | strand transfer | <10 µM |
| Cc1cnc2c(ccc3c(C)c(C)cnc32)c1C | - | strand transfer | >100 µM |
| Cc1cccc(Cc2cccc(Cc3cccc(Cc4cccc(C)c4OCC(=O)/C=C(\O)c4ccc(F)cc4)c3O)c2OCC(=O)/C=C(\O)c2ccc(F)cc2)c1O | - | strand transfer | 13.4 µM |
| N#Cc1c(-c2cccc(Cl)c2)nc(SCc2ccc([N+](=O)[O-])cc2)[nH]c1=O | - | strand transfer | 100 µM |
| CN(C)CCCNC(=O)c1csc(NC(=O)c2csc(NC(=O)CCCCCN)n2)n1 | - | 3′ processing | 30 µM |
| CN1CCc2nc(C(=O)NCc3ccc(F)cc3)c(O)c(=O)n2C1=O | - | ELISA | <10 µM |
| C=CCC(C(=O)O)c1c(-c2ccccc2)c2cc(Cl)ccc2[nH]c1=O | - | strand transfer | >250 µM |
| O=C(NCc1ccc(F)cc1)c1nc2n(c(=O)c1O)CCOCC2 | - | ELISA | <10 µM |
| Cc1cn2ccc(=O)c(O)c2c(=O)n1Cc1ccc(Cl)c(Cl)c1 | - | ELISA | 0.01–0.1 µM |
| CN(C)CCCNC(=O)c1csc(NC(=O)c2csc(NC(=O)c3csc(NC(=O)CCCCCN)n3)n2)n1 | - | 3′ processing | 2 µM |
| CC(=O)N1CCC(n2c(=O)c(O)c3n(c2=O)CCN(Cc2ccc(F)cc2)C3=O)CC1 | - | strand transfer | <10 µM |
| O=C(NCc1ccc(Br)cc1)c1c(O)c2ncccc2oc1=O | - | strand transfer | 35.7 µM |
| O=c1ccn2ccn(CCCc3c(F)cccc3Cl)c(=O)c2c1O | - | ELISA | 0.01–0.1 µM |
| Cc1ccc(/C(O)=C/C(=O)COc2c(C)cccc2Cc2cccc(Cc3cccc(Cc4cccc(C)c4O)c3OCC(=O)/C=C(\O)c3ccc(C)cc3)c2O)cc1 | - | strand transfer | 13.1 µM |
| NCCCCCCNC(=O)c1csc(NC(=O)c2csc(NC(=O)CCCCCN)n2)n1 | - | 3′ processing | 38 µM |
| COc1ccc(/C(O)=C/C(=O)COc2c(C)cccc2Cc2cccc(Cc3cccc(Cc4cccc(C)c4O)c3OCC(=O)/C=C(\O)c3ccc(OC)cc3)c2O)cc1 | - | strand transfer | 21.2 µM |
| CN1CCCCn2c(c3ncn(Cc4ccc(F)c(Cl)c4)c(=O)c3c(O)c2=O)C1=O | - | strand transfer | 0.03 µM |
| O=C(NCc1ccc(F)cc1)C1C(=O)N(O)C(=O)c2ccccc21 | - | - | 0.056 µM |
| Cn1cc(NC(=O)c2cc(NC(=O)c3cc(NC=O)cn3C)cn2C)cc1C(=O)NCCC(=N)N | - | 3′ processing | 3.5 µM |
| COc1cccc2c1c(/C(O)=C\C(=O)C(=O)O)cn2Cc1cc(F)ccc1F | IIIB | 3′ processing / AlphaScreen | 2 µM |
| O=C1c2c(O)c(=O)c(-c3nccs3)cn2CCN1Cc1ccc(F)cc1 | - | ELISA | 0.01–0.1 µM |
| CCC(=O)NCCCn1c(C(C)(C)C)nc(C(=O)NCc2ccc(F)cc2)c(O)c1=O | - | 3′ processing | >20 µM |
| O=C(O)C(=O)/C=C(\O)c1cccc(NC(=O)c2cc([N+](=O)[O-])cc([N+](=O)[O-])c2O)c1 | - | strand transfer / gel | 2 µM |
| N#Cc1c(-c2ccccc2)nc(SCc2ccc([N+](=O)[O-])cc2)[nH]c1=O | - | strand transfer | 100 µM |
| CN(C)CCCNC(=O)c1ccc2nc(-c3ccc4nc(-c5ccc(OCCCCCCCOc6ccc(-c7nc8ccc(-c9nc%10ccc(C(=O)NCCCN(C)C)cc%10[nH]9)cc8[nH]7)cc6)cc5)[nH]c4c3)[nH]c2c1 | - | strand transfer | 0.044 µM |
| N#Cc1c(-c2cccc([N+](=O)[O-])c2)nc(SCc2ccc([N+](=O)[O-])cc2)[nH]c1=O | - | strand transfer | 100 µM |
| Nc1ncnc2c1ncn2[C@@H]1C[C@H](CO)[C@H](O)[C@H]1O | - | strand transfer | 33–43 µM |
| N#Cc1c(-c2ccccc2)nc(SCc2ccccc2)[nH]c1=O | - | strand transfer | 100 µM |
| COc1cccc2c1c(/C(O)=C/C(=O)C(=O)O)cn2Cc1cc(F)ccc1F.COc1cccc2c1c(/C(O)=C/C(=O)C(=O)O)cn2Cc1cc(F)ccc1F.[Mg+2].[Mg+2] | IIIB | strand transfer / AlphaScreen | 0.05 µM |
| O=c1oc2cccnc2c(O)c1C(=S)Nc1ccccc1 | - | strand transfer | >300 µM |
| Cn1nnc(CN2CCn3c(nc(C(=O)NCc4ccc(F)cc4)c(O)c3=O)C2(C)C)n1 | - | ELISA | <10 µM |
| COC(=O)Nc1cn2ccn(Cc3cccc(Cl)c3)c(=O)c2c(O)c1=O | - | ELISA | <0.01 µM |
| CON(C)CCC1CN(Cc2ccc(F)cc2)C(=O)c2c(O)c(=O)n(C(C)C)c(=O)n21 | - | strand transfer | <10 µM |
| Cc1nc2c(ccc3c(C)c(C)c(C)nc32)c(C)c1C | - | 3′ processing | >100 µM |
| COCC(C)n1c(=O)c(O)c2n(c1=O)CCN(Cc1ccc(F)cc1)C2=O | - | strand transfer | <10 µM |
| CN(C)CCCNC(=O)c1csc(NC(=O)c2csc(NC(=O)c3csc(NC(=O)c4csc(NC(=O)CCCCCN)n4)n3)n2)n1 | - | 3′ processing | 0.3 µM |
| Cc1ccc(-c2nc(SCc3ccc([N+](=O)[O-])cc3)[nH]c(=O)c2C#N)cc1 | - | strand transfer | 35 µM |
| Cc1cc(C(C)(C)C)cc(Cc2cc(C(C)(C)C)cc(Cc3cc(C(C)(C)C)cc(Cc4cc(C(C)(C)C)cc(C)c4OCC(=O)/C=C(\O)c4ccc(F)cc4)c3O)c2OCC(=O)/C=C(\O)c2ccc(F)cc2)c1O | - | strand transfer | >50 µM |
| O=C1C(=O)c2cc(-c3cc(O)c(O)c(O)c3)ccc2C(Oc2c(O)cc(-c3ccc4cc(O)c(O)c(O)c4c3)cc2O)=C1O | - | strand transfer | 0.17 µM |
| CC(=O)OC[C@@H]1CCC(=O)N1c1cc(F)ccc1CNC(=O)c1nc2n(c(=O)c1O)CCOC2(C)C | - | strand transfer | 0.02–0.1 µM |
| CCNC(=O)c1cn2ccn(Cc3ccc(F)cc3)c(=O)c2c(O)c1=O | - | ELISA | 0.01–0.1 µM |
| CN(C)CCCNC(=O)c1csc(NC(=O)CCCCCN)n1 | - | 3′ processing | 1000 µM |
| Cc1ccc(-c2c([C@H](OC(C)(C)C)C(=O)O)c(C)nc3ccccc23)cc1C | - | strand transfer / fluorescence | 0.0316 µM |
| Cc1ccc(CNC(=O)c2c(O)c3ncccc3oc2=O)cc1 | - | strand transfer | 12.3 µM |
| CC(=O)CNC(=O)c1cn2c(c(O)c1=O)C(=O)N(Cc1cccc(Cl)c1)CC2 | - | ELISA | 0.01–0.1 µM |
| O=C1c2c(O)c(=O)n(C3CCNCC3)c(=O)n2CCN1Cc1ccc(F)cc1 | - | strand transfer | <10 µM |
| N#Cc1c(-c2cccc([N+](=O)[O-])c2)nc(SCCc2ccccc2)[nH]c1=O | - | strand transfer | 58 µM |
| CC1(C)CN(Cc2ccc(Cl)c(Cl)c2)C(=O)c2c(O)c(=O)ccn21 | - | ELISA | 0.01–0.1 µM |
| CN1C(=O)CN2CCn3c(nc(C(=O)NCc4ccc(F)cc4)c(O)c3=O)C1C2 | - | ELISA | <10 µM |
| CC(C)(C)c1nc(C(=O)NCc2ccc(F)cc2)c(O)c(=O)n1CCCNS(=O)(=O)C1CC1 | - | 3′ processing | >20 µM |
| COc1ccc(-n2c(=O)c(O)c3n(c2=O)CCN(Cc2ccc(F)cc2)C3=O)cc1 | - | strand transfer | <10 µM |
| O=C1c2c(O)c(=O)c(-c3nccs3)cn2CCN1Cc1cc(Cl)cc(OCc2ccccc2)c1 | - | ELISA | 0.01–0.1 µM |
| Cc1cccc(Cc2cccc(Cc3cccc(Cc4cccc(C)c4OCC(=O)/C=C(\O)c4ccc(Cl)cc4)c3O)c2OCC(=O)/C=C(\O)c2ccc(Cl)cc2)c1O | - | strand transfer | 5.9 µM |
| COc1ccc(-c2nc(SCc3ccccc3)[nH]c(=O)c2C#N)cc1 | - | strand transfer | 100 µM |
| CO[C@H]1O[C@@H](n2ccc(=O)[nH]c2=O)C[C@@H]1N=[N+]=[N-] | - | strand transfer | 6.7 µM |
| O=C1c2c(O)c(=O)n(CC3(N4CCOCC4)CCCC3)c(=O)n2CCN1Cc1ccc(F)cc1 | - | strand transfer | <10 µM |
| N#Cc1c(-c2ccc(Cl)cc2)nc(SCCc2ccccc2)[nH]c1=O | - | strand transfer | 16 µM |
| COC(=O)C(CCSC)n1c(=O)c(O)c2n(c1=O)CCN(Cc1ccc(F)cc1)C2=O | - | strand transfer | <10 µM |
| O=C(O)CN(CCN(CC(=O)O)CC(=O)NCCCCCCNC(=O)c1csc(NC(=O)c2csc(NC(=O)CCCCCNC(=O)CN(CCN(CC(=O)O)CC(=O)O)CC(=O)O)n2)n1)CC(=O)O | - | 3′ processing | 300 µM |

9 of the rows above, restated:

COc1ccc(/C(O)=C/C(=O)COc2c(C)cccc2Cc2cccc(Cc3cccc(Cc4cccc(C)c4O)c3OCC(=O)/C=C(\O)c3ccc(OC)cc3)c2O)cc1 ; read by: strand transfer ; value: 21.2 µM
CO[C@H]1O[C@@H](n2ccc(=O)[nH]c2=O)C[C@@H]1N=[N+]=[N-] ; read by: strand transfer ; value: 6.7 µM
NCCCCCCNC(=O)c1csc(NC(=O)c2csc(NC(=O)CCCCCN)n2)n1 ; read by: 3′ processing ; value: 38 µM
CN1CCCCn2c(c3ncn(Cc4ccc(F)c(Cl)c4)c(=O)c3c(O)c2=O)C1=O ; read by: strand transfer ; value: 0.03 µM
CN(C)CCCNC(=O)c1csc(NC(=O)c2csc(NC(=O)CCCCCN)n2)n1 ; read by: 3′ processing ; value: 30 µM
O=c1ccn2ccn(CCCc3c(F)cccc3Cl)c(=O)c2c1O ; read by: ELISA ; value: 0.01–0.1 µM
COC(=O)Nc1cn2ccn(Cc3cccc(Cl)c3)c(=O)c2c(O)c1=O ; read by: ELISA ; value: <0.01 µM
Cn1cc(NC(=O)c2cc(NC(=O)c3cc(NC=O)cn3C)cn2C)cc1C(=O)NCCC(=N)N ; read by: 3′ processing ; value: 3.5 µM
CN(C)CCCNC(=O)c1csc(NC(=O)c2csc(NC(=O)c3csc(NC(=O)c4csc(NC(=O)CCCCCN)n4)n3)n2)n1 ; read by: 3′ processing ; value: 0.3 µM